Results of unrelated studies side by side (data: NIAID ChemDB).

All rows: tests in culture; agent: HIV-1

ECn is the concentration giving n% inhibition of infection, replication or growth.

structure,measure,read by,mutations,setting,cells,strain,result
CC1([C@@H]2CC[C@]3(NC[C@H](CO)N4CCS(=O)(=O)CC4)CC[C@]4(C)[C@H](CC[C@@H]5[C@@]6(C)CC[C@H](OC(=O)[C@H]7C[C@@H](C(=O)O)C7(C)C)C(C)(C)[C@@H]6CC[C@]54C)[C@@H]23)CC1,EC50,p24 / ELISA,-,-,MT-4,NL4-3,<0.01 µM
CNC(=O)c1c(O)c2ncc(Cc3ccc(F)cc3)c3c2n(c1=O)C[C@](C)(C(=O)NCC(C)(C)C#N)O3,EC50,ATP / luminescence,-,-,MT-2,IIIB,0.029 µM
CN1N=C(N)c2cn([C@@H]3O[C@H](COP(=O)(O)O)[C@@H](O)[C@H]3O)c3ncnc1c23,EC50,syncytia,-,-,CEM + CEM-SS,G-762,0.035 µM
CN(C)CCNc1nc(-c2cccs2)cc(-c2cccs2)n1,EC50,RT activity,-,-,PBMC,LAV-1,0.5 µM
CC1([C@@H]2CC[C@]3(NC[C@@H](CF)N4CCS(=O)(=O)CC4)CC[C@]4(C)[C@H](CC[C@@H]5[C@@]6(C)CC[C@H](OC(=O)[C@H]7C[C@@H](C(=O)O)C7(C)C)C(C)(C)[C@@H]6CC[C@]54C)[C@@H]23)CC1,EC50,p24 / ELISA,V7A,-,MT-4,NL4-3,0.0505–0.1 µM
CC(C)C1=C2[C@H]3CC[C@@H]4[C@@]5(C)CC[C@H](OC(=O)C6C[C@@H](C(=O)O)C6(C)C)C(C)(C)[C@@H]5CC[C@@]4(C)[C@]3(C)CC[C@@]2(NC(=O)C(C)(C)NC(=O)c2ccc(N3CCS(=O)(=O)CC3)cc2)CC1=O,EC50,p24,V7A,-,MT-4,NL4-3,0.01001–0.05 µM
Cc1cc(/C=C/C#N)cc(C)c1Oc1nc(NC2CCN(Cc3ccccc3Br)CC2)nc2ccsc12,EC50,MTT,NNRTI-resistant (RT Y181C),-,MT-4,IIIB,0.123 µM
Cc1cc(-c2ccc(C#N)cc2)cc(Cl)c1Oc1nc(Nc2ccc(C#N)cc2)nc2ccsc12,EC50,MTT,-,-,MT-4,IIIB,0.0345 µM
Cc1ccc2c(c1)[C@@H](N1CCCC1=O)C[C@@H](c1cccc(N)c1)N2,EC50,MTT,-,-,MT-2,NL4-3,>50 µM
COP(=O)(c1cc(C)cc(CCC#N)c1)c1c(C(N)=O)[nH]c2ccc(Cl)cc12,EC50,-,K103N/Y181C,-,PBMC,Clinical isolate,0.0088 µM
Cc1cc(/C=C/C#N)cc(C)c1Oc1nc(NC2CCN(Cc3cccc(F)c3)CC2)nc2ccsc12,EC50,MTT,-,-,MT-4,RES056,0.126 µM
CC1([C@@H]2CC[C@]3(NC[C@H](C(=O)O)N4CCS(=O)(=O)CC4)CC[C@]4(C)[C@H](CC[C@@H]5[C@@]6(C)CC[C@H](OC(=O)[C@H]7C[C@@H](C(=O)O)C7(C)C)C(C)(C)[C@@H]6CC[C@]54C)[C@@H]23)CC1,EC50,p24 / ELISA,-,-,MT-4,NL4-3,>0.05 µM
CC(C)C1=C2[C@H]3CC[C@@H]4[C@@]5(C)CC[C@H](OC(=O)C6C[C@@H](C(=O)O)C6(C)C)C(C)(C)[C@@H]5CC[C@@]4(C)[C@]3(C)CC[C@@]2(NC(=O)C(C)(C)NC(=O)c2ccc(Cl)cn2)CC1=O,EC50,p24,V7A,-,MT-4,NL4-3,<0.01 µM
N#Cc1ccc(Nc2nc(Oc3c(F)cc(-c4ccc(C#N)cc4)cc3F)c3sccc3n2)cc1,EC50,MTT,L100I,-,MT-4,IIIB,0.0478 µM
CC(C)S(=O)(=O)N1CCN([C@@H](C)CN[C@]23CC[C@@H](C4(C)CC4)[C@@H]2[C@H]2CC[C@@H]4[C@@]5(C)CC[C@H](OC(=O)[C@H]6C[C@@H](C(=O)O)C6(C)C)C(C)(C)[C@@H]5CC[C@@]4(C)[C@]2(C)CC3)CC1,EC50,p24 / ELISA,-,-,MT-2,92HT599,<0.01 µM
Cc1cc(/C=C/C#N)cc(C)c1Oc1nc(NC2CCN(Cc3ccc(Cl)cc3)CC2)nc2ccsc12,EC50,MTT,NNRTI-resistant (RT E138K),-,MT-4,IIIB,0.152 µM
CC(C)[C@H](NC(=O)OCc1ccccn1)C(=O)N[C@@H](Cc1ccccc1)[C@@H](O)C[C@H](Cc1ccccc1)NC(=O)OCc1cccnc1,EC50,p24,PR-L63P V82T I84V,-,MT-4,NL4-3,<3 µM
CC(C)C1=C2[C@H]3CC[C@@H]4[C@@]5(C)CC[C@H](OC(=O)C6C[C@@H](C(=O)O)C6(C)C)C(C)(C)[C@@H]5CC[C@@]4(C)[C@]3(C)CC[C@@]2(NC(=O)C2(NC(=O)c3ccc(Cl)cc3)CCC2)CC1=O,EC50,p24,V7A,-,MT-4,NL4-3,<0.01 µM
CC(C)[C@H](CN[C@]12CC[C@@H](C3(C)CC3)[C@@H]1[C@H]1CC[C@@H]3[C@@]4(C)CC[C@H](OC(=O)[C@H]5C[C@@H](C(=O)O)C5(C)C)C(C)(C)[C@@H]4CC[C@@]3(C)[C@]1(C)CC2)N1CCS(=O)(=O)CC1,EC50,p24 / ELISA,-,-,MT-2,92HT599,>0.02 µM
Cc1cc(Oc2nc(Nc3ccc(C#N)cc3)nc3ccsc23)ccc1-c1ccc(C#N)cc1,EC50,MTT,-,-,MT-4,IIIB,0.0588 µM
Cc1ccc2c(c1)[C@@H](N1CCCC1=O)C[C@@H](c1cccc([N+](=O)[O-])c1)N2,EC50,luciferase,-,-,MT-2,NL4-3-Luc,>142 µM
CCNC(=O)[C@]1(C)Cn2c(=O)c(C(=O)NC)c(O)c3ncc(Cc4ccc(F)cc4)c(c32)O1,EC50,ATP / luminescence,-,-,MT-2,IIIB,0.0145 µM
Cc1ccccc1CN1CCC(Nc2nc(Oc3c(C)cc(/C=C/C#N)cc3C)c3sccc3n2)CC1,EC50,MTT,NNRTI-resistant (RT Y181C),-,MT-4,IIIB,0.0857 µM
COc1cnc(-n2cnc(C)n2)c2c1c(C(=O)C(=O)N1CCN(C(=O)c3ccccc3)CC1)cn2COP(=O)(O)O,EC50,luciferase,M426K,-,U-87,NL4-3,0.0037 µM
N#Cc1ccc(Nc2nc(Oc3ccc(-c4ccc(C#N)cc4)c(F)c3F)c3sccc3n2)cc1,EC50,MTT,Y188L,-,MT-4,IIIB,0.2286 µM
Cc1cc(S(N)(=O)=O)ccc1NC(=O)COc1ccc(Cl)cc1C(=O)c1cc(F)cc(C(F)(F)F)c1,EC50,luciferase,RT-K103N Y181C,-,HELA MAGI,IIIB,0.036 µM
C[C@H]1CO[C@@H]2Cn3cc(C(=O)NCc4ccc(F)cc4F)c(=O)c(O)c3C(=O)N12,EC50,single cycle,-,-,TZM-bl,NL4-3,0.00056 µM
O=[N+]([O-])c1cccc(-c2ccc3ccccc3n2)c1,EC50,luciferase,Delta-VSV-Luc,pseudotyped,MT-2,NL4-3,24.63 µM
CC(C)C1=C2[C@H]3CC[C@@H]4[C@@]5(C)CC[C@H](OC(=O)C6C[C@@H](C(=O)O)C6(C)C)C(C)(C)[C@@H]5CC[C@@]4(C)[C@]3(C)CC[C@@]2(NC(=O)C2(NC(=O)c3ncccn3)CCC2)CC1=O,EC50,p24,V7A,-,MT-4,NL4-3,>0.05 µM
CC1([C@@H]2CC[C@]3(NC[C@H](CO[Si](C)(C)C(C)(C)C)N4CCS(=O)(=O)CC4)CC[C@]4(C)[C@H](CC[C@@H]5[C@@]6(C)CC[C@H](OC(=O)[C@H]7C[C@@H](C(=O)O)C7(C)C)C(C)(C)[C@@H]6CC[C@]54C)[C@@H]23)CC1,EC50,p24 / ELISA,-,-,MT-2,92HT599,0.01001–0.02 µM
COc1ccnc2[nH]cc(C(=O)C(=O)N3CCN(C(=O)c4ccccc4)C[C@H]3C)c12,EC50,RT activity,GP41-I595F,-,MT-2,LAI(GP41-I595F) Recombinant,0.032 µM
CN(C)CCNc1nc(-c2ccc(SCCN(C)C)cc2)cc(-c2cccs2)n1,EC50,RT activity,-,-,PBMC,LAV-1,1.26 µM
Nc1nc(=O)n([C@H]2C=C[C@@H](CO)O2)cc1F,EC90,p24,RT-K65R L74V M184V Y115F,-,PBMC,XM-ABC-resistant,6.2 µM
C=C(C)[C@@H]1CC[C@]2(C(=O)NCCCCCCCC(=O)N[C@@H](CC(C)C)[C@@H](O)CC(=O)O)CC[C@]3(C)[C@H](CC[C@@H]4[C@@]5(C)CC[C@H](O)C(C)(C)[C@@H]5CC[C@]43C)[C@@H]12,EC50,syncytia,GP41-I69V,-,HeLa P4 + HeLa,LAI,<10 µM
CC(C)[C@@H](CN[C@]12CC[C@@H](C3(C)CC3)[C@@H]1[C@H]1CC[C@@H]3[C@@]4(C)CC[C@H](OC(=O)[C@H]5C[C@@H](C(=O)O)C5(C)C)C(C)(C)[C@@H]4CC[C@@]3(C)[C@]1(C)CC2)N1CCS(=O)(=O)CC1,EC50,p24 / ELISA,-,-,MT-4,NL4-3,0.01001–0.05 µM
Cc1cccc(NC(=O)NC(C)(C)C(=O)N[C@@]23CC[C@]4(C)[C@H](CC[C@@H]5[C@@]6(C)CC[C@H](OC(=O)C7C[C@@H](C(=O)O)C7(C)C)C(C)(C)[C@@H]6CC[C@]54C)C2=C(C(C)C)C(=O)C3)n1,EC50,p24,V7A,-,MT-4,NL4-3,>0.05 µM
O=C1CCCN1[C@H]1C[C@@H](c2cccc([N+](=O)[O-])c2)Nc2ccc(I)cc21,EC50,luciferase,-,-,MT-2,NL4-3-Luc,>108 µM
Cc1ccc(C(=O)NC2(C(=O)N[C@@]34CC[C@]5(C)[C@H](CC[C@@H]6[C@@]7(C)CC[C@H](OC(=O)C8C[C@@H](C(=O)O)C8(C)C)C(C)(C)[C@@H]7CC[C@]65C)C3=C(C(C)C)C(=O)C4)CCCC2)cn1,EC50,p24,-,-,MT-4,NL4-3,<0.005 µM
Cc1cc(/C=C/C#N)cc(C)c1Oc1nc(NC2CCN(Cc3cccc(Cl)c3)CC2)nc2ccsc12,EC50,MTT,NNRTI-resistant (RT F227L V106A),-,MT-4,IIIB,0.0683 µM
CC1([C@@H]2CC[C@]3(NC[C@@H](CO)N4CCS(=O)(=O)CC4)CC[C@]4(C)[C@H](CC[C@@H]5[C@@]6(C)CC[C@H](OC(=O)[C@H]7C[C@@H](C(=O)O)C7(C)C)C(C)(C)[C@@H]6CC[C@]54C)[C@@H]23)CC1,EC50,p24 / ELISA,V7A,-,MT-4,NL4-3,<0.05 µM
Cc1cnc(SCCN(C)C)nc1-c1ccc(-c2nc(SCCN(C)C)ncc2C)s1,EC50,RT activity,-,-,PBMC,LAV-1,2.1 µM
Cc1occc1C(=O)NC(C)(C)C(=O)N[C@@]12CC[C@]3(C)[C@H](CC[C@@H]4[C@@]5(C)CC[C@H](OC(=O)C6C[C@@H](C(=O)O)C6(C)C)C(C)(C)[C@@H]5CC[C@]43C)C1=C(C(C)C)C(=O)C2,EC50,p24,-,-,MT-4,NL4-3,0.00501–0.01 µM
C[C@H](F)[C@@H](CN[C@]12CC[C@@H](C3(C)CC3)[C@@H]1[C@H]1CC[C@@H]3[C@@]4(C)CC[C@H](OC(=O)[C@H]5C[C@@H](C(=O)O)C5(C)C)C(C)(C)[C@@H]4CC[C@@]3(C)[C@]1(C)CC2)N1CCS(=O)(=O)CC1,EC50,p24 / ELISA,-,-,MT-4,NL4-3,0.01001–0.05 µM
CC(C)C1=C2[C@H]3CC[C@@H]4[C@@]5(C)CC[C@H](OC(=O)C6C[C@@H](C(=O)O)C6(C)C)C(C)(C)[C@@H]5CC[C@@]4(C)[C@]3(C)CC[C@@]2(NC(=O)C(C)(C)NC(=O)c2ccc(N3CCOCC3)cc2)CC1=O,EC50,p24,-,-,MT-4,NL4-3,<0.005 µM
Nc1nc(NC2CC2)c2ncn([C@H]3C=C[C@@H](CO)C3)c2n1,EC90,p24,RT-M41L D67N K70R T215Y K219Q,-,MT-4,XM-AZT-resistant,4.2 µM
Cc1cc(C#N)cc(C)c1Oc1nc(NC2CCC(NCc3ccc(O)cc3)CC2)nc2ccsc12,EC50,MTT,NNRTI-resistant (RT Y188L),-,MT-4,IIIB,>20.1 µM
CNC(=O)c1c(O)c2ncc(Cc3ccc(F)cc3)c3c2n(c1=O)C[C@H](CN1CCN(S(C)(=O)=O)CC1)O3,EC50,ATP / luminescence,-,-,MT-2,IIIB,0.0004 µM
CN(C)CCNc1nc(-c2ccco2)cc(-c2cc3ccccc3s2)n1,EC50,RT activity,-,-,PBMC,LAV-1,2.1 µM
CNC(=O)[C@@]1(C)Cn2c(=O)c(C(=O)NCCC#N)c(O)c3ncc(Cc4ccc(F)cc4)c(c32)O1,EC50,ATP / luminescence,-,-,MT-2,IIIB,0.078 µM
COc1cc2c(c(OC)c1)[C@@H](N1CCCC1=O)C[C@@H](c1cccc([N+](=O)[O-])c1)N2,EC50,MTT,-,-,MT-2,NL4-3,>50 µM
CCCCCCCCCC[N+](C)(C)CCCNCc1c(O)cc2c(c1O)-c1cc(ccc1O)[C@H]1NC(=O)[C@@H]3NC(=O)C4NC(=O)[C@@H](Cc5ccc(c(Cl)c5)Oc5cc3cc(c5O)Oc3ccc(cc3Cl)[C@@H](O)[C@H](NC1=O)C(=O)N[C@@H]2C(=O)O)NC(=O)[C@H](N)c1ccc(O)c(c1)Oc1cc(O)cc4c1,EC50,syncytia,-,-,CEM,HE,9.5 µM

Blank or dashed fields: not listed here. a–b is a range or a potency band. Conditions beyond the fields shown may differ between rows.